Source: PMC7179022, “Carvacrol Prodrugs with Antimicrobial Activity Loaded on Clay Nanocomposites” (Materials, 2020)

Assay: Adsorption equilibrium of prodrugs onto montmorillonite (VHS)
Type: physicochemical
Conditions: 1:1 w/w prodrug:VHS, 24 h, 22 °C

Question: Which “amount of carvacrol prodrug retained by VHS” value (shortened to “amount”) does the source give for `Cc1ccc(C(C)C)cc1OC(=O)CN` [WSCP1] here?
Answer: Its value is 24 % w/w.

Question: Which “amount” value does the source give for `Cc1ccc(C(C)C)cc1OC(=O)CCN` [WSCP3] here?
Answer: The value was 22 % w/w.

Question: With `Cc1ccc(C(C)C)cc1OC(=O)[C@@H](C)N` [WSCP2] as the molecule, how does the “amount” value read?
Answer: Its value is 32 % w/w.
